Assay results as given in article PMC12714728 (npj Viruses, 2025).

Biological target: hemagglutinin (HA) ectodomain of A/Vietnam/1203/2004 (H5N1) (influenza A virus A/Vietnam/1203/2004 …, biotin on the BirA site)
Conditions: both partners purified

**Q.** How did the koff turn out when CYRDPLGVAGEMC (disulfide between the two Cys (sidechain-sidechain cyclization)) [cyclic peptide CP13] was run?
**A.** 2.52 s⁻¹
